Data published in US20250283886.

T1: FWPLPWPDDDY{LYSN3}NH2
T1 chain: FWPLPWPDDDYK

T2: IIPFQQ
T2 chain: IIPFQQ

T3: GGPFQQ
T3 chain: GGPFQQ

T4: RRPFQQ
T4 chain: RRPFQQ

T5: HHPFQQ
T5 chain: HHPFQQ

T6: DDPFQQ
T6 chain: DDPFQQ

T7: CCPFQQ
T7 chain: CCPFQQ

T8: TTPFQQ
T8 chain: TTPFQQ

T9: LLPFQQ
T9 chain: LLPFQQ

T10: MMPFQQ
T10 chain: MMPFQQ

T11: QQPFQQ
T11 chain: QQPFQQ

T12: KKPFQQ
T12 chain: KKPFQQ

T13: PPPFQQ
T13 chain: PPPFQQ

T14: FFPFQQ
T14 chain: FFPFQQ

T15: YYPFQQ
T15 chain: YYPFQQ

T16: WWPFQQ
T16 chain: WWPFQQ

T17: YAAFAAWADDDW1
T17 chain: YAAFAAWADDDW

T18: VVPFQQ
T18 chain: VVPFQQ

T19: AAPFQQ
T19 chain: AAPFQQ

T20: SSPFQQ
T20 chain: SSPFQQ

T21: EEPFQQ
T21 chain: EEPFQQ

T22: NNPFQQ
T22 chain: NNPFQQ

T23: FFPFFP{LYSN3}NH2
T23 chain: FFPFFPX

T24: YPYPYP{LYSN3}NH2
T24 chain: YPYPYPX

B1: VPr pAzF (protein)
chain: MPPITQQATVTAWLPQVDASQITGTISSLESFTNRFYTTTSGAQASDWIASEWQALSASLPNASVKQVSHSGYNQKSVVMTITGSEAPDEWIVIGGHLDSTIGSHTNEQSVAPGADDDASGIAAVTEVIRVLSENNFQPKRSIAFMAYAAEEVGLRGSQDLANQYKSEGKNVVSALQLDMTNYKGSAQDVVFITDYTDSNFTQYLTQLMDEYLPSLTYGFDTCGYACSDHASWHNAGYPAAMPFESKFNDYNPRIHTTQDTLANSDPTGSHAKKFTQLGLAYAIEMGSATGDTPTPGNQ
B2: P. furiosus Aminopeptidase I (protein)
chain: MVDWELMKKIIESPGVSGYEHLGIRDLVVDILKDVADEVKIDKLGNVIAHFKGSAPKVMVAAHMDKIGLMVNHIDKDGYLRVVPIGGVLPETLIAQKIRFFTEKGERYGVVGVLPPHLRREAKDQGGKIDWDSIIVDVGASSREEAEEMGFRIGTIGEFAPNFTRLSEHRFATPYLDDRICLYAMIEAARQLGEHEADIYIVASVQEEIGLRGARVASFAIDPEVGIAMDVTFAKQPNDKGKIVPELGKGPVMDVGPNINPKLRQFADEVAKKYEIPLQVEPSPRPTGTDANVMQINREGVATAVLSIPIRYMHSQVELADARDVDNTIKLAKALLEELKPMDFTPLE
B3: Cy3B-taqAPT 2nd peak (protein)
chain: MDAFTENLNKLAELAIRVGLNLEEGQEIVATAPIEAVDFVRLLAEKAYENGASLFTVLYGDNLIARKRLALVPEAHLDRAPAWLYEGMAKAFHEGAARLAVSGNDPKALEGLPPERVGRAQQAQSRAYRPTLSAITEFVTNWTIVPFAHPGWAKAVFPGLPEEEAVQRLWQAIFQATRVDQEDPVAAWEAHNRVLHAKVAFLNEKRFHALHFQGPGTDLTVGLAEGHLWQGGATPTKKGRLCNPNLPTEEVFTAPHRERVEGVVRASRPLALSGQLVEGLWARFEGGVAVEVGAEKGEEVLKKLLDTDEGARRLGEVALVPADNPIAKTGLVFFDTLFDENAASHIAFGQAYAENLEGRPSGEEFRRRGGNESMVHVDWMIGSEEVDVDGLLEDGTRVPLMRRGRWVI
B4: Cy3B-taqAPT 4th peak (protein)
chain: B3 chain
B5: yPIP pAzF (protein)
chain: MTQQEYQNRRQALLAKMAPGSAAIIFAAPEATRSADSEYPYRQNSDFSYLTGFNEPEAVLILVKSDETHNHSVLFNRIRDLTAEIWFGRRLGQEAAPTKLAVDRALPFDEINEQLYLLLNRLDVIYHAQGQYAYADNIVFAALEKLRHGFRKNLRAPATLTDWRPWLHEMRLFKSAEEIAVLRRAGEISALAHTRAMEKCRPGMFEYQLEGEILHEFTRHGARYPAYNTIVGGGENGCILHYTENECELRDGDLVLIDAGCEYRGYAGDITRTFPVNGKFTPAQRAVYDIVLAAINKSLTLFRPGTSIREVTEEVVRIMVVGLVELGILKGDIEQLIAEQAHRPFFMHGLSHWLGMDVHDVGDYGSSDRGRILEPGMVLTVEPGLYIAPDADVPPQYRGIGIRIEDDIVITATGNENLTASVVKDPDDIEALMALNHAGENLYFQE
B6: K287pAzF-Cy3 yPIP (protein)
chain: B5 chain

Columns and labels:
[1] = target: T1, FWPLPWPDDDY{LYSN3}NH2
[2] = target: T2, IIPFQQ
[3] = target: T3, GGPFQQ
[4] = target: T4, RRPFQQ
[5] = target: T5, HHPFQQ
[6] = target: T6, DDPFQQ
[7] = target: T7, CCPFQQ
[8] = target: T8, TTPFQQ
[9] = target: T9, LLPFQQ
[10] = target: T10, MMPFQQ
[11] = target: T11, QQPFQQ
[12] = target: T12, KKPFQQ
[13] = target: T13, PPPFQQ
[14] = target: T14, FFPFQQ
[15] = target: T15, YYPFQQ
[16] = target: T16, WWPFQQ
[17] = target: T17, YAAFAAWADDDW1
[18] = target: T18, VVPFQQ
[19] = target: T19, AAPFQQ
[20] = target: T20, SSPFQQ
[21] = target: T21, EEPFQQ
[22] = target: T22, NNPFQQ
[23] = target: T23, FFPFFP{LYSN3}NH2
[24] = target: T24, YPYPYP{LYSN3}NH2

Protein	HPLC Assay Conv; 1 mM Peptide, 1 uM enzyme, RT/0.5 hr [2] [%]	HPLC Assay Conv; 1 mM Peptide, 1 uM enzyme, RT/0.5 hr [3] [%]	HPLC Assay Conv; 1 mM Peptide, 1 uM enzyme, RT/0.5 hr [4] [%]	HPLC Assay Conv; 1 mM Peptide, 1 uM enzyme, RT/0.5 hr [5] [%]	HPLC Assay Conv; 1 mM Peptide, 1 uM enzyme, RT/0.5 hr [6] [%]	HPLC Assay Conv; 1 mM Peptide, 1 uM enzyme, RT/0.5 hr [7] [%]	HPLC Assay Conv; 1 mM Peptide, 1 uM enzyme, RT/0.5 hr [8] [%]	HPLC Assay Conv; 1 mM Peptide, 1 uM enzyme, RT/0.5 hr [9] [%]	HPLC Assay Conv; 1 mM Peptide, 1 uM enzyme, RT/0.5 hr [10] [%]	HPLC Assay Conv; 1 mM Peptide, 1 uM enzyme, RT/0.5 hr [11] [%]	HPLC Assay Conv; 1 mM Peptide, 1 uM enzyme, RT/0.5 hr [12] [%]	HPLC Assay Conv; 1 mM Peptide, 1 uM enzyme, RT/0.5 hr [13] [%]	HPLC Assay Conv; 1 mM Peptide, 1 uM enzyme, RT/0.5 hr [14] [%]	HPLC Assay Conv; 1 mM Peptide, 1 uM enzyme, RT/0.5 hr [15] [%]	HPLC Assay Conv; 1 mM Peptide, 1 uM enzyme, RT/0.5 hr [16] [%]	HPLC Assay Conv; 1 mM Peptide, 1 uM enzyme, RT/0.5 hr [18] [%]	HPLC Assay Conv; 1 mM Peptide, 1 uM enzyme, RT/0.5 hr [19] [%]	HPLC Assay Conv; 1 mM Peptide, 1 uM enzyme, RT/0.5 hr [20] [%]	HPLC Assay Conv; 1 mM Peptide, 1 uM enzyme, RT/0.5 hr [21] [%]	HPLC Assay Conv; 1 mM Peptide, 1 uM enzyme, RT/0.5 hr [22] [%]	other results
B1																					HPLC Assay Conv; 200 uM Peptide, 4 uM enzyme, 37 C/1 hr [1]: 96%
B2	0	0	100	19	86	72	100	99	100	100	100	0	65	100	37	0	100	90	93	81	HPLC Assay Conv; 1 mM Peptide, 1.0 uM enzyme, RT/0.5 hr [17]: Distribution (product: Mainly ADDDWK)
B3																					HPLC Assay Conv; 1 mM Peptide, 20 uM Enzyme, 37 C/0.5 hr [23]: 100%
B4																					HPLC Assay Conv; 1 mM Peptide, 20 uM Enzyme, 37 C/0.5 hr [23]: 100%
B5	0	0	0	0	0	0	0	0	0	0	0	26	0	0	0	0	0	0	0	0	
B6																					HPLC Assay Conv; 1 mM Peptide, 1 uM Enzyme, 37 C/1 hr [24]: 100%
